A mixed list of measured activities; the numbers were collected in NIAID ChemDB.

All rows: tests in culture; organism: HIV-1; cell line: HeLa; read-out: EC50

ECn is the concentration giving n% inhibition of infection, replication or growth. Rows are shuffled and stem from different studies. An empty or dashed field is not shown. Two numbers with a dash give a range or band.

compound | strain | read by | setting | result
COc1ncc(OC)c2c(C(=O)C(=O)N3CCC(=C(c4ccccc4)c4nccs4)CC3)c[nH]c12 | - | luciferase | - | <1 µM
CCN(CC)S(=O)(=O)N1CCN(C(=O)C(=O)c2c[nH]c3c(C(=O)OC)ccc(F)c23)CC1 | Recombinant | luciferase | - | 1–5 µM
COC(=O)c1ccccc1NC(=O)Nc1cccc2c(C(=O)C(=O)N3CCN(C(=O)c4ccccc4)C[C@H]3C)c[nH]c12 | - | luciferase / reporter gene | - | <1 µM
Cc1cc(C#N)cc(C)c1Nc1nc(Nc2ccc(C#N)cc2)nc2c(C)csc12 | Y181C | luciferase | - | <0.01 µM
COc1ccc(C#N)c2[nH]cc(C(=O)N3CCN(C(=O)c4ccccc4)CC3)c12 | - | luciferase / reporter gene | - | >0.5 µM
N#CC(N)=NCCCCN=C(N)NC(N)=[NH+]CCCCCC[NH+]=C(N)NC(N)=NCCN.[Cl-].[Cl-] | IIIB | β-galactosidase | - | 56.6 µM
COc1ccnc2[nH]cc(C(=O)C(=O)N3CCN(S(=O)(=O)N(C)C)C[C@H]3C)c12 | Recombinant | luciferase | - | <1 µM
O=C(Cc1ccccc1)N/N=C/C=C/c1ccco1 | - | cell fusion / luminescence | - | >112 µM
COc1cnc(-c2ccc(C(=O)N3CCCC3)cc2)c2[nH]cc(C(=O)C(=O)N3CCC(=C(C#N)c4ccccc4)CC3)c12 | - | luciferase | - | <1 µM
O=C(C(=O)N1CCN(C(=O)c2ccccc2)CC1)c1c[nH]c2cccc(F)c12 | JR-FL | luciferase / reporter gene | pseudotyped | 2.4 µM
COC(=O)c1ccc(F)c2c(C(=O)C(=O)N3CCN(S(=O)(=O)N4CCCCC4)CC3)c[nH]c12 | Recombinant | luciferase | - | 1–5 µM
O=C(N/N=C/c1ccsc1)c1c[nH]c2ccccc12 | - | cell fusion / luminescence | - | >112 µM
N#CC(=C1CCN(C(=O)C(=O)c2c[nH]c3c(-n4ccc(N)n4)ncc(F)c23)CC1)c1ccccc1 | - | luciferase | - | <1 µM
CN1c2ccccc2C2C1C=C(C#N)C(=O)N2c1ccc([N+](=O)[O-])cc1 | O-MVP5180 | GFP / fluorescence | - | 0.01 µM
CC(C)[C@@H](CO)n1cc(C(=O)O)c(=O)c2nc(Cc3cccc(Cl)c3F)ccc21 | - | luciferase | 0% human serum | >2.5 µM
O=C(C(=O)N1CCN(C(=O)c2ccccc2)CC1)c1c[nH]c2c(-c3ccccn3)ccnc12 | - | luciferase | - | <1 µM
CC1CN(C(=O)C(=O)c2c[nH]c3cccc(F)c23)CCN1C(=O)c1ccccc1 | LAI | luciferase / reporter gene | pseudotyped | 0.0026 µM
CC1CN(C(=O)c2ccccc2)CCN1C(=O)C(=O)c1cccc2cc[nH]c12 | - | luciferase / reporter gene | - | 1–5 µM
N#CC(=C1CCN(C(=O)C(=O)c2c[nH]c3c(NC(=O)Nc4cccc(C(=O)O)c4)cccc23)CC1)c1ccccc1 | - | luciferase / reporter gene | - | <1 µM
N#CC1=CC2Nc3ccccc3C2N(c2ccc([N+](=O)[O-])cc2)C1=O | 10076-4 | GFP / fluorescence | - | 0.31 µM
CC#Cc1cn([C@@H]2O[C@H](COP(=O)(NCCCCCCCCCCCC)Oc3ccccc3)[C@@H](O)[C@@H]2O)c(=O)[nH]c1=O | HXB2 | plaque count | - | >50 µM
NC(=O)CCNC[C@H](Cc1ccc(O)cc1)NC[C@H](Cc1ccc(O)cc1)NC[C@H](Cc1ccc(O)cc1)NC[C@@H](N)Cc1ccc(O)cc1 | - | luciferase | - | 19 µM
O=C(C(=O)N1CCN(C(=O)c2ccccc2)CC1)c1c[nH]c2c(-c3cnccn3)ccnc12 | - | luciferase | - | <1 µM
CC[n+]1c(-c2ccccc2)c2cc(-n3cccc3)ccc2c2ccc(N)cc21 | - | - | - | 1.5 µM
C[C@H]1CN(C(=O)c2ccccc2)CCN1C(=O)C(=O)c1c[nH]c2cccc(F)c12 | JR-FL | luciferase / reporter gene | pseudotyped | 0.00158 µM
COc1cnc(-n2cncn2)c2[nH]cc(C(=O)C(=O)N3CCC(=C(Br)c4ccccc4)CC3)c12 | - | luciferase | - | <1 µM
COc1cccc2[nH]cc(C(=O)C(=O)N3CCN(C(=O)c4ccccc4)C[C@H]3C)c12 | JR-FL | luciferase / reporter gene | pseudotyped | 0.00058 µM
N#CC(N)=NCCCC[NH+]=C(N)NC(N)=NCCCCN=C(N)NC(N)=[NH+]CCCCN.[Cl-].[Cl-] | IIIB | β-galactosidase | - | 76.8 µM
COc1cccc(-c2ccnc3c(C(=O)C(=O)N4CCN(C(=O)c5ccccc5)CC4)c[nH]c23)n1 | - | luciferase | - | <1 µM
O=C(N/N=C/c1ccccc1)Nc1ccccc1 | - | cell fusion / luminescence | - | >112 µM
C[C@@H]1CN(C(=O)c2ccccc2)CCN1C(=O)C(=O)c1cc2ccccc2[nH]1 | - | luciferase / reporter gene | - | <1 µM
COc1cnc(-c2cc(C)[nH]n2)c2[nH]cc(C(=O)C(=O)N3CCC(=C(c4ccccc4)c4nnc(C)o4)CC3)c12 | - | luciferase | - | <1 µM
O=C(c1ccccc1)N1CCN(C(=O)c2c[nH]c3cccc(F)c23)CC1 | - | luciferase / reporter gene | - | <1 µM
Nc1nc2c(ncn2COCCO)c(=O)[nH]1 | HXB2 | plaque count | - | >100 µM
CC(O)C(=O)[O-].CC(O)C(=O)[O-].N#CC(N)=NCCN=C(N)NC(N)=[NH+]CCCCCC[NH+]=C(N)NC(N)=NCCN | IIIB | β-galactosidase | - | 989 µM
COc1ncc(OC)c2c(C(=O)C(=O)N3CCC(=C(C#Cc4ccccc4)c4ccccc4)CC3)c[nH]c12 | - | luciferase | - | <1 µM
O=C(C(=O)N1CCN(C(=O)c2ccccc2)CC1)c1cc2ccccc2s1 | - | luciferase / reporter gene | - | 1–5 µM
CCCCCC1CN(C(=O)c2ccccc2)CCN1C(=O)C(=O)c1c[nH]c2cccc(F)c12 | LAI | luciferase / reporter gene | pseudotyped | 0.855 µM
CC(Cc1nc(-c2ccc(O)c(O)c2)cs1)n1cc(Cl)cn1 | - | single cycle / luminescence | pseudotyped | 33 µM
COc1cccc2oc(C(=O)C(=O)N3CCN(C(=O)c4ccccc4)CC3)cc12 | - | luciferase / reporter gene | - | >0.5 µM
COc1cc2c(cc1OCc1cccc(Cl)c1F)c(=O)c(C(=O)O)cn2[C@H](CO)C(C)(C)C | NL4-3 | luciferase | pseudotyped | 0.1 µM
COc1ccc(/C=N/NC(=O)Nc2nonc2N)cc1 | - | cell fusion / luminescence | - | >112 µM
Cc1cc(C)c(Nc2nc(Nc3ccc(C#N)cc3)nc3c(C)csc23)c(C)c1 | - | luciferase | - | <0.1 µM
COc1cc(/C=C/C(=O)OC(Cc2cc(OC)c(OC)c(OC)c2)C(=O)O)ccc1O | - | MTT | - | 3.67 µM
Cc1ccsc1/C=N/NC(=O)CN1CCSCC1 | - | cell fusion / luminescence | - | >112 µM
Cc1cc(-c2ccncc2)cc(C)c1Oc1nc(Nc2ccc(C#N)cc2)nc2c(Cl)cn(C)c12 | - | luciferase | pseudotyped | 0.001–0.01 µM
N#CC(=C1CCN(C(=O)C(=O)c2c[nH]c3c(-n4nccn4)ccnc23)CC1)c1ccccc1 | - | luciferase | - | <1 µM
CC(=O)Nc1ccc(F)c2c(C(=O)C(=O)N3CCC(=C(C#N)c4ccccc4)CC3)c[nH]c12 | - | luciferase / reporter gene | - | <1 µM
CC#Cc1cn([C@@H]2O[C@H](COP(=O)(N[C@H](C(=O)OC)C(C)C)Oc3ccccc3)[C@@H](O)[C@@H]2O)c(=O)[nH]c1=O | HXB2 | plaque count | - | >100 µM
NCCN=C(N)NC(N)=[NH+]CCCCCC[NH+]=C(N)NC(N)=NCCN=C(N)NC12CC3CC(CC(C3)C1)C2 | IIIB | β-galactosidase | - | 119 µM
CN(C(=O)[C@H](Cc1ccccc1)NC(=O)Cc1c[nH]c2ccc(Cl)cc12)c1ccccc1 | VSV-G | - | - | 0.39 µM
COc1ncc(OC)c2c(C(=O)C(=O)N3CCC(=C(C#N)c4nnc(-c5ccccc5)o4)CC3)c[nH]c12 | - | luciferase | - | >5 µM
CC#Cc1cn([C@@H]2O[C@H](COP(=O)(O)Oc3ccccc3Cl)[C@@H](O)[C@@H]2O)c(=O)[nH]c1=O | HXB2 | plaque count | - | >50 µM
CC1CN(C(=O)c2ccccc2)CCN1C(=O)C(=O)c1cc2cc(F)ccc2[nH]1 | - | luciferase / reporter gene | - | <1 µM
CC(C)[C@H]1COc2nc(Cc3cccc(Cl)c3F)cc3c(=O)c(C(=O)O)cn1c23 | NL4-3 | luciferase | pseudotyped | >0.1 µM
O=C(C(=O)N1CCN(C(=O)c2ccccc2)CC1)c1c[nH]c2c(-c3nn[nH]n3)ncc(Cl)c12 | - | luciferase | - | <1 µM
CC(C)(C)[C@@H](CO)n1cc(C(=O)O)c(=O)c2cc(Cc3cccc(Cl)c3F)ncc21 | NL4-3 | luciferase | pseudotyped | 0.01–0.1 µM
Cc1cc(C)c(Oc2nc(Nc3ccc(C#N)cc3)nc3sc4c(c23)CCCC4)c(C)c1 | Y-188L | luciferase | - | >0.1 µM
O=C(NN=C1CCCC1)c1ccccc1O | - | cell fusion / luminescence | - | >112 µM
COc1nc2c(cc1CCc1ccc(F)cc1F)c(=O)c(C(=O)O)cn2[C@H](CO)C(C)(C)C | NL4-3 | luciferase | pseudotyped | >0.1 µM

Repeating the first 5 entries:

compound | strain | read by | setting | result
COc1ncc(OC)c2c(C(=O)C(=O)N3CCC(=C(c4ccccc4)c4nccs4)CC3)c[nH]c12 | - | luciferase | - | <1 µM
CCN(CC)S(=O)(=O)N1CCN(C(=O)C(=O)c2c[nH]c3c(C(=O)OC)ccc(F)c23)CC1 | Recombinant | luciferase | - | 1–5 µM
COC(=O)c1ccccc1NC(=O)Nc1cccc2c(C(=O)C(=O)N3CCN(C(=O)c4ccccc4)C[C@H]3C)c[nH]c12 | - | luciferase / reporter gene | - | <1 µM
Cc1cc(C#N)cc(C)c1Nc1nc(Nc2ccc(C#N)cc2)nc2c(C)csc12 | Y181C | luciferase | - | <0.01 µM
COc1ccc(C#N)c2[nH]cc(C(=O)N3CCN(C(=O)c4ccccc4)CC3)c12 | - | luciferase / reporter gene | - | >0.5 µM